Compound potency records, mixed from different reports. Data source: NIAID ChemDB in PubChem.

Common to all: tests in culture; organism: Mycobacterium tuberculosis

ECn is the concentration giving n% inhibition of infection, replication or growth. a–b is a range or a potency band. MIC bound comes from a single tested concentration. Percent inhibition refers to the dose given; in toxicity tests it is the harm to the cells. Blank or dashed fields: not listed here. Conditions beyond the fields shown may differ between rows.

smiles	strain or isolate	dose	read-out	changes	cells	method	result
CCC(C)OC(=O)N1CCN(c2ccc3cc(-c4ccccc4)c(N4CCN(C(=O)OC(C)CC)CC4)nc3n2)CC1	H37Rv	-	MIC	-	-	-	>6.25 µg/mL
CC1(Cl)CC2OC3(Br)C=CC(C)(O)C2(CC1Br)C3(C)C	H37Rv	-	MIC	-	-	BACTEC	≥12.5 µg/mL
CO/C(C)=C1/NC(=O)[C@H]([C@@H](C)O)NC(=O)c2csc(n2)-c2cc(O)c(-c3nc(C(=O)NCc4cnn(C)c4)cs3)nc2-c2csc(n2)[C@@H]2COC(=O)c3c4c5c(cccc5n3O)COC(=O)[C@@H](O[C@H]3C[C@](C)(O)[C@H](N(C)C)[C@H](C)O3)[C@@H](OC4)[C@H](NC(=O)c3csc1n3)c1nc(cs1)C(=O)N2	Clinical isolate 565	-	MIC	Multidrug-resistant	-	broth dilution	≤10 µM
Clc1ccc2c(-c3ccccc3)cc(N3CCN(c4ccccc4)CC3)nc2n1	H37Rv	6.25 µg/mL	inhibition	-	-	-	55%
CN(C)C/C=C(\c1ccc(Cl)cc1)c1ccc(-c2ccc(Br)cc2)cc1	ALI 536	-	MIC	-	-	-	≤5 µg/mL
O=C(COc1cnccn1)N/N=C1\SCC(=O)N1c1ccc(Cl)cc1	H37Rv	-	MIC	-	-	-	105 µg/mL
CCNC(=S)N=Nc1c(O)[nH]c2ccc(Br)cc12	H37Rv	-	MIC	-	-	-	>12.5 µg/mL
CC(C)(C)C1CCc2c(sc3nc(SCc4ccncc4)nc(N)c23)C1	H37Rv	-	MIC	-	-	MTT / visual reading	>200 µg/mL
CO/C(C)=C1/NC(=O)[C@H]([C@@H](C)O)NC(=O)c2csc(n2)-c2cc(O)c(-c3nc(C(=O)NCCCN4CCOCC4)cs3)nc2-c2csc(n2)[C@@H]2COC(=O)c3c4c5c(cccc5n3O)COC(=O)[C@@H](O[C@H]3C[C@](C)(O)[C@H](N(C)C)[C@H](C)O3)[C@@H](OC4)[C@H](NC(=O)c3csc1n3)c1nc(cs1)C(=O)N2	Clinical isolate 7791	-	MIC	Isoniazid-resistant	-	broth dilution	≤2.5 µM
COc1ccccc1C(=O)CC(=O)Nc1cccc(NC(=O)C(C)Oc2ccc(C(C)(C)C)cc2)c1	H37Rv	-	MIC	-	-	-	>100 µg/mL
CO[C@H]1/C=C/O[C@@]2(C)Oc3c(C)c(O)c4c(O)c(c(/C=N/N5CCN(C/C=C/c6ccccc6)CC5)c(O)c4c3C2=O)NC(=O)/C(C)=C\C=C\[C@H](C)[C@H](O)[C@@H](C)[C@@H](O)[C@@H](C)[C@H](OC(C)=O)[C@@H]1C	3125 (rifampin-sensitive)	-	MBC	-	-	-	0.1 µg/mL
Cc1ncc(N)nc1C	H37Rv	-	MIC	-	-	BACTEC	≥12.5 µg/mL
CO[C@H]1/C=C/O[C@@]2(C)Oc3c(C)c(O)c4c(=O)c(c5oc6cc(N7CCN(CC(C)C)CC7)cc(=O)c6nc5c4c3=C2O)NC(=O)/C(C)=C\C=C\[C@H](C)[C@H](O)[C@@H](C)[C@@H](O)[C@@H](C)[C@H](OC(C)=O)[C@@H]1C	27 (rifampicin-resistant)	-	MIC	-	-	-	1 µg/mL
CCOc1ccc(-n2c(-c3ccc(C)cc3)cs/c2=N\NC(=O)COc2cnccn2)cc1	H37Rv	-	MIC	-	-	-	3.1 µg/mL
CCn1c(SCC(=O)N=Nc2c(O)[nH]c3ccccc23)nc2ccccc2c1=O	H37Rv	-	MIC	-	-	-	>12.5 µg/mL
CN(C)C/C=C(/c1ccc(Br)cc1)c1ccc(-c2ccc(Br)cc2)cc1	ALI 282	-	MIC	-	-	-	≤4 µg/mL
Clc1ccc2c(-c3ccccc3)cc(N3CCNCC3)nc2n1	H37Rv	6.25 µg/mL	inhibition	-	-	-	70%
CN(C)CC=C(c1ccccc1)c1ccc(-c2ccc(Br)cc2)cc1	ALI 544	-	MIC	-	-	-	10 µg/mL
NNC(=O)CNc1ccc(Cl)cc1	H37Rv	12.5 µg/mL	inhibition	-	-	BACTEC	78%
NNC(=O)c1ccncc1	Strain 460	-	MIC	-	-	-	0.125 µg/mL
CC(CN1CCN(CCOCCO)CC1)CN1c2ccccc2Sc2ccc(Cl)cc21	H37Rv	12.5 µg/mL	inhibition	-	-	BACTEC	98%
O=c1ccc2c(-c3ccccc3)cc(N3CCCCC3)nc2[nH]1	H37Rv	6.25 µg/mL	inhibition	-	-	-	0%
O=C(Nc1ccc(S(=O)(=O)c2ccc(NC(=O)c3cccnc3)cc2)cc1)c1cccnc1	H37Rv	-	MIC	-	-	-	>100 µg/mL
CC1CC(=O)N2CCCNC2=C1C#N	H37Rv	6.25 µg/mL	inhibition	-	-	resazurin	4%
O=C(O)c1ccc2n[nH]nc2c1	H37Rv	-	MIC	-	-	-	>100 µg/mL
CC(C)n1c(-c2ccc(Cl)cc2)cs/c1=N\NC(=O)COc1cnccn1	H37Rv	-	MIC	-	-	-	8.7 µg/mL
NC[C@@H]1O[C@H](O[C@H]2[C@@H](O)[C@H](O[C@@H]3[C@@H](O)[C@H](N)C[C@H](N)[C@H]3O[C@H]3O[C@H](CO)[C@@H](O)C[C@H]3N)O[C@@H]2CO)[C@H](N)[C@@H](O)[C@@H]1O[C@H]1O[C@H](CO)[C@@H](O)[C@H](O)[C@@H]1O	H37Rv (capreomycin-resistant)	-	EC50	-	-	-	≥50 µg/mL
CCN(CC)c1ccc(Cc2ccc(N(CC)CC)cc2Br)c(Br)c1	H37Rv	12.5 µg/mL	inhibition	-	-	BACTEC	28%
CC(C)n1c(-c2ccc(Br)cc2)cs/c1=N\NC(=O)COc1cnccn1	H37Rv	-	MIC	-	-	-	15 µg/mL
CCN(CC)CCNC(=O)c1nn(C)c(=S)[nH]c1=S	H37Rv	-	MIC bound	-	-	BACTEC	>6.25 µg/mL
CO/C(C)=C1/NC(=O)[C@H]([C@@H](C)O)NC(=O)c2csc(n2)-c2cc(O)c(-c3nc(C(=O)NCCc4c[nH]cn4)cs3)nc2-c2csc(n2)[C@@H]2COC(=O)c3c4c5c(cccc5n3O)COC(=O)[C@@H](O[C@H]3C[C@](C)(O)[C@H](N(C)C)[C@H](C)O3)[C@@H](OC4)[C@H](NC(=O)c3csc1n3)c1nc(cs1)C(=O)N2	Clinical Isolate 913	-	MIC	-	-	broth dilution	10–100 µM
CC(C)(C)C1CCc2c(sc3nc(SCc4ccccn4)nc(N)c23)C1	H37Rv	-	MIC	-	-	MTT / visual reading	25 µg/mL
CCOC(=O)c1nc2ccccc2c(=O)[nH]1	H37Rv	12.5 µg/mL	inhibition	-	-	BACTEC	13%
COC(=O)c1ccco1	H37Rv	-	MIC	-	-	-	>100 µg/mL
CC1COc2c(N3CCN(C)CC3)c(F)cc3c(=O)c(C(=O)O)cn1c23	07-9206	-	MIC	-	-	agar	0.5 µg/mL
CCC(N)(C(=O)O)c1ccccc1	H37Rv	-	MIC	-	-	-	>100 µg/mL
Cc1nc2nc(C)n(CCN3CCOCC3)c(=O)c2c(-c2cccc([N+](=O)[O-])c2)c1C(=O)CCCCCCCCCCN1CCC(c2ccccc2)(c2ccccc2)CC1	H37Rv	6.25 µg/mL	inhibition	-	-	resazurin	100%
COc1ccc(Br)cc1C1OC(=O)c2cccc(N)c21	H37Rv	-	MIC	-	-	-	>100 µg/mL
CO[C@H]1/C=C/O[C@@]2(C)Oc3c(C)c(O)c4c(O)c(c5c(c4c3C2=O)NC2(CCN(CC(C)C)CC2)N=5)=NC(=O)/C(C)=C\C=C\[C@H](C)[C@H](O)[C@@H](C)[C@@H](O)[C@@H](C)[C@H](OC(C)=O)[C@@H]1C	2912 (rifampin-sensitive)	-	MBC	-	-	-	0.05 µg/mL
COc1ccc2c(-c3ccccc3)cc(N3CCOCC3)nc2n1	H37Rv	-	MIC	-	-	-	>6.25 µg/mL
COc1c(N2CCNC(C)C2)c(F)cc2c(=O)c(C(=O)O)cn(C3CC3)c12	Strain 361	-	MIC	-	-	-	0.25 µg/mL
CN(C)C/C=C(\c1ccc(N)cc1)c1ccc(-c2ccc(Br)cc2)cc1	H37Rv	-	MIC	-	-	-	9.8 µg/mL
O=C(/N=N\C(=O)OCc1ccccc1)OCc1ccccc1	H37Rv	12.5 µg/mL	inhibition	-	-	BACTEC	35%
O=C(O)Cc1cccs1	H37Rv	-	MIC	-	-	-	>100 µg/mL
CCOC(=O)c1c(O)c(Cc2ccccc2)c(=O)n2c1[nH]c1cc(C)c(C)cc12	H37Rv	12.5 µg/mL	inhibition	-	-	BACTEC	5%
CC(C)CN1C(=O)CS/C1=N\NC(=O)COc1cnccn1	H37Rv	-	MIC	-	-	-	128 µg/mL
Nc1ccc(C(c2ccc(N)cc2)C(Cl)(Cl)Cl)cc1	H37Rv	-	MIC	-	-	-	25 µg/mL
CC(C)(C)C1CCc2c(sc3nc(SCC(N)=O)nc(N)c23)C1	H37Rv	-	MIC	-	-	MTT / visual reading	12 µg/mL
O=c1oc2c(O)c(O)cc3c(=O)oc4c(O)c(O)cc1c4c23	H37Rv	-	MIC	-	-	BACTEC	≥12.5 µg/mL
CC(=O)Oc1cc(Nc2ccccc2)nn1C(C)=O	H37Rv	-	MIC	-	-	-	>100 µg/mL
CC1S/C(=N/N=C2\C(=O)Nc3ccccc32)N(C)C1=O	H37Rv	-	MIC	-	-	-	>12.5 µg/mL
Cc1cc(CSc2nc(N)c3c4c(sc3n2)CC(C(C)(C)C)CC4)on1	H37Rv	-	MIC	-	-	MTT / visual reading	50 µg/mL
CCCCCCCCC[C@@H]1CC(=O)NCC(=O)N[C@@H](C(C)C)C(=O)N[C@H](CC(C)C)C(=O)N[C@@H](C)C(=O)N[C@@H](C(C)C)C(=O)O1	H37Rv	-	MIC	-	-	BACTEC	≥12.8 µg/mL
OCCc1ccncc1	H37Rv	-	MIC	-	-	-	>100 µg/mL
O=C1c2nc[nH]c2C(=O)c2c1nc[nH]c2=O	H37Rv	-	MIC bound	-	-	BACTEC	>12.5 µg/mL
CCOC(=O)c1cncs1	H37Rv	-	MIC	-	-	-	100 µg/mL
CCCCn1c(-c2ccc(Cl)cc2)cs/c1=N\NC(=O)COc1cnccn1	H37Rv	-	MIC	-	-	-	13 µg/mL
CC(=O)Nc1ccc(/C=N/NC(N)=S)cc1	Isolate B drug-susceptible	-	MIC	-	-	-	15 µg/mL
O=C(/N=C1\N=Nc2nc(C(C(=O)c3cccc([N+](=O)[O-])c3Cl)c3nc4n(c3O)/C(=N/C(=O)Nc3ccc(Cl)cc3)N=N4)c(O)n21)Nc1ccc(Cl)cc1	H37Rv	-	MIC bound	-	-	resazurin	>6.25 µg/mL
CC(C)(C)C1CCc2c(sc3nc(SCC(=O)NCc4ccccc4)nc(N)c23)C1	H37Rv	-	MIC	-	-	MTT / visual reading	>200 µg/mL
S=C(Nc1ccccc1)c1ccccc1	H37Rv	-	MIC	-	-	-	25 µg/mL
O=C(CSc1nc(-c2ccccc2)c(-c2ccccc2)[nH]1)N=Nc1c(O)[nH]c2ccc(Br)cc12	H37Rv	-	EC50	-	-	-	>12 µg/mL
CCCCOc1nc(NCC)nc(NCC)n1	H37Rv	-	MIC	-	-	-	100 µg/mL
CC(=O)O[C@@]12C[C@@H](C)[C@@]3(O)[C@@H](C=C(CO)C[C@]4(O)C(=O)C(C)=C[C@@H]34)[C@@H]1C2(C)C	H37Rv	-	MIC bound	-	-	resazurin	>6.25 µg/mL
CN(C)C/C=C(/c1ccc(-c2ccc(Br)cc2)cc1)c1ccc([N+](=O)[O-])cc1	H37Rv	-	MIC	-	-	-	36.5 µg/mL
O=c1c2cc(Br)ccc2oc2ccc(Br)cc12	H37Rv	-	MIC	-	-	-	>100 µg/mL
c1ccc(-c2cc3ccc(N4CCCCC4)nc3nc2N2CCCCC2)cc1	H37Rv	-	MIC	-	VERO	-	6.25 µg/mL
Cc1csc2nc(-c3ccccc3)c(/C=N/NC(=O)CN(C)C)n12	H37Rv	-	MIC bound	-	-	BACTEC	>12.5 µg/mL
CCN(CC)c1ccc2ccccc2c1	H37Rv	-	MIC	-	-	-	50 µg/mL
C/C(=N/NC(=S)N1CCC(c2ccccc2)CC1)c1nccnc1C	H37Rv	-	MIC	-	-	-	12.5 µg/mL
CCCCCCc1cc(O)c2c(c1)oc(=O)c1ccc(C)cc12	H37Rv	-	MIC	-	-	-	>100 µg/mL
COC1=C2CC(C)CC(OC)C(O)C(C)/C=C(\C)C(OC(N)=O)C(OC)/C=C\C=C(/C)C(=O)NC(=C(C=NC(C)(C)C)C1=O)C2=O	PAS-R	-	MIC	-	-	-	12.5 µg/mL
CCCCCCCCCc1c(N)[nH]c(=S)[nH]c1=O	H37Rv	-	MIC	-	-	-	50 µg/mL
NNC(=O)C(=O)N/N=C(\CC1(O)C(=O)Nc2ccccc21)c1ccc([N+](=O)[O-])cc1	H37Rv	12.5 µg/mL	inhibition	-	-	BACTEC	81%
Nc1cc2ccccc2cc1C(=O)O	H37Rv	-	MIC	-	-	-	>100 µg/mL
Nc1ccc2cc(-c3ccccc3)c(N3CCCCC3)nc2n1	H37Rv	-	MIC	-	-	-	>6.25 µg/mL
NNC(=O)c1ccncc1	Clinical Isolate 913	-	MIC	-	-	broth dilution	≤0.2 µM
COC(=O)/C(O)=C(\O)C(=O)OC	H37Rv	-	MIC	-	-	-	100 µg/mL
CO[C@H]1/C=C/O[C@@]2(C)Oc3c(C)c(O)c4c(O)c(c(/C=N/N5CCN(C)CC5)c(O)c4c3C2=O)NC(=O)/C(C)=C\C=C\[C@H](C)[C@H](O)[C@@H](C)[C@@H](O)[C@@H](C)[C@H](OC(C)=O)[C@@H]1C	Clinical isolate 565	-	MIC	Rifampicin- and isoniazid-resistant	-	broth dilution	≥10 µM
CCN(CC)Cc1ccccc1.Cl	H37Rv	-	MIC	-	-	-	>100 µg/mL